Anti-infective test results gathered from many reports (values: NIAID ChemDB through PubChem).

All rows: whole-cell or culture tests; species: HIV-1

Fold resistance: result on the changed form divided by that on wild type.

compound | strain | mutations | cells | read by | setting | endpoint | dose | value
Nc1nc(NC2CC2)c2ncn([C@H]3C=C[C@@H](CO)C3)c2n1 | Recombinant | RT-M184V | HeLa | luciferase | - | EC50 | - | 7.74 µM
CCCCCCCCCCCCCCCCOP(=O)(OC[C@H]1OC(O)[C@H](O)[C@@H](O)[C@@H]1O)OC[C@H]1O[C@@H](n2cc(C)c(=O)[nH]c2=O)C[C@@H]1N=[N+]=[N-] | LAV-Bru | - | CEM | RT activity | 26 d | inhibition | 1 µM | 0%
C#C[C@]1(CO)O[C@@H](n2cnc3c(N)nc(F)nc32)C[C@@H]1O | Clinical isolate | M184I | MT4-GFP | fluorescence | - | EC50 | - | 0.00656 µM
C/C(=C(/CCO)SSCC1CCCO1)N(C=O)Cc1cnc(C)nc1N | RF | - | U-937/HIV-1(RF) + U-937 | p24 | - | inhibition | 50 µM | 60%
c1cc(CN2CCCNCCNCCCNCC2)ccc1CN1CCCNCCNCCCNCC1 | CM1 CLADE C R5 | - | PBMC | p24 | - | inhibition | 0.5 µM | 0%
O=C(O)P(=O)(O)O | IIIB | - | PBL | RT activity | 21 d | inhibition | 256 µM | 100%
CC(C)(C)NC(=O)[C@@H]1C[C@@H]2CCCC[C@@H]2CN1C[C@@H](O)[C@H](Cc1ccccc1)NC(=O)[C@H](CC(N)=O)NC(=O)c1ccc2ccccc2n1 | NL4-3 | PR-D30N N88D | MT-4 | p24 | - | EC90 | - | 0.01 µM
CCOP(=O)(COc1ccc(C[C@H](NC(=O)O[C@H]2CO[C@H]3OCC[C@H]32)[C@H](O)CN(CC(C)C)S(=O)(=O)c2ccc(OC)cc2)cc1)OCC | IIIB | 8374-P62 GS-8374-resistant | MT-2 | ATP | - | fold resistance | - | 14.1
O=C1Nc2ccc(Cl)cc2[C@@](C#CC2CC2)(C(F)(F)F)O1 | - | M184V | Primary T lymphocytes | p24 / ELISA | - | EC90 | - | 0.08 µM
CC(C)CN(C[C@@H](O)[C@H](Cc1ccccc1)NC(=O)O[C@H]1CCOC1)S(=O)(=O)c1ccc(N)cc1 | IIIB | R41K | MT-2 | p24 / ELISA | - | fold resistance | - | 0.8
CC[C@@H](C)[C@H](C(=O)O)N1C[C@H](CN2CCC(c3cc(Cc4ccc(S(=O)(=O)c5ccccc5)cc4)nn3CC)CC2)[C@@H](c2cccc(F)c2)C1 | BaL | - | HeLa | β-galactosidase | 50% human serum | EC90 | - | 0.033 µM
COCCNC(=O)[C@@H](NC(=O)[C@H](Cc1ccc(OC)c(OC)c1OC)C[C@H](O)[C@H](Cc1ccccc1)NC(=O)OC(C)(C)C)C(C)C | - | - | PBL | - | - | EC99 | - | 0.12 µM
Cc1cc(C)c(-n2nnnc2SCC(=O)Nc2cccc([N+](=O)[O-])c2)c(C)c1 | - | - | MT-4 | p24 | - | EC95 | - | <10 µM
CCOc1ccc(Cc2cc(C3CCN(C[C@H]4CN([C@@H](C(=O)O)C(C)(C)C)C[C@@H]4c4cccc(F)c4)CC3)n(CC)n2)cc1F | BaL | - | HeLa | β-galactosidase | - | EC90 | - | <0.00014 µM
Cc1cc(C)c(-n2nnnc2SCC(=O)Nc2ccc(Cl)nc2Cl)c(C)c1 | - | - | MT-4 | p24 | - | EC95 | - | <10 µM
O=S(=O)(O)c1cc(N=C=S)ccc1/C=C/c1ccc(N=C=S)cc1S(=O)(=O)O | GB8 | - | JM | syncytia | - | inhibition | 50 µg/mL | 100%
O=C1N(Cc2ccc(CO)cc2)[C@H](Cc2ccccc2)[C@H](O)[C@@H](O)[C@@H](Cc2ccccc2)N1Cc1ccc(CO)cc1 | 9156 clinical isolate | - | PBMC | p24 | - | inhibition | 0.16 µM | 90%
Cn1c2ccccc2c2c1cc(C#N)c(=O)n2-c1ccc([N+](=O)[O-])cc1 | Recombinant | RT-M41L V118I M184V | HeLa | luciferase | - | fold resistance | - | 9.8
CC[C@@H](C)[C@H](C(=O)O)N1C[C@H](CN2CCC(c3cc(Cc4ccc5ccccc5c4)nn3CC)CC2)[C@@H](c2cccc(F)c2)C1 | BaL | - | HeLa | β-galactosidase | - | EC90 | - | <0.00014 µM
Cc1cn([C@H]2C[C@H](N=[N+]=[N-])[C@@H](COP(=O)(O)OC[C@H]3OC(O)[C@@H](O)[C@@H](O)[C@@H]3O)O2)c(=O)[nH]c1=O | LAV-Bru | - | CEM | RT activity | 15 d | inhibition | 0.2 µM | 91%
Cc1cc(C)c(-n2nnnc2SCC(=O)Nc2ccc(C(N)=O)cc2Cl)c(C)c1 | - | - | MT-4 | p24 | - | EC95 | - | <10 µM
CC(C)=CCN1c2cc(Cl)cc3[nH]c(=S)n(c23)C[C@@H]1C | - | RT-D67N K70R T215Y K219Q Y181C | MT-4 | - | - | EC95 | - | >3 µM
CCn1nc(Cc2ccc(OC)cc2)cc1C1CCN(C[C@H]2CN([C@@H](C(=O)O)C3CCCCC3)C[C@@H]2c2cccc(F)c2)CC1 | BaL | - | HeLa | β-galactosidase | 50% human serum | EC90 | - | 0.033 µM
Cc1cn([C@H]2C=C[C@@H](CO)O2)c(=O)[nH]c1=O | - | K65R | Primary T lymphocytes | p24 / ELISA | - | EC90 | - | 7.9 µM
CCn1nc(Cc2ccccc2F)cc1C1CCN(C[C@H]2CN([C@@H](C(=O)O)C(C)C)C[C@@H]2c2cccc(F)c2)CC1 | BaL | - | HeLa | β-galactosidase | 50% human serum | EC90 | - | >0.3 µM
CC(=O)N1CCC(C(=O)N(CCCN2CCC(Cc3ccc(C(N)=O)cc3)CC2)c2ccc(C)c(Cl)c2)CC1 | R5 subtype E_1 recombinant | - | U87 (CD4+ CCR5+) + U87 | luciferase | - | EC50 | - | 0.0015 µM
CC[C@@H](C)[C@H](C(=O)O)N1C[C@H](CN2CCC(c3cc(Cc4ccc(OC(F)F)cc4)nn3CC)CC2)[C@@H](c2cccc(F)c2)C1 | BaL | - | HeLa | β-galactosidase | 50% human serum | EC90 | - | 0.011 µM
Cc1ccnc2c1NC(=O)c1cccnc1N2C1CC1 | HIVRTMF (RT L74V Y181C) | RT-L74V Y181C T215Y | HT4 + HT4 LacZ-1 | plaque count | - | fold resistance | - | 53.3
Cc1ccnc2c1NC(=O)c1cccnc1N2C1CC1 | NNRTI-resistant (RT K103N L100I) | RT-K103N L100I | MAGI | β-galactosidase | - | EC50 | - | 7.9 µM
Cc1cc(C)c(-n2nnnc2S(=O)CC(=O)Nc2ccccc2[N+](=O)[O-])c(C)c1 | - | - | MT-4 | p24 | - | EC95 | - | <10 µM
Cc1cn([C@H]2C[C@H](N=[N+]=[N-])[C@@H](CO)O2)c(=O)[nH]c1=O | IIIB | ATV-P36 atazanavir-resistant mutant | MT-2 | ATP | - | fold resistance | - | 1.2
CCn1nc(Cc2ccc(OC)cc2)cc1C1CCN(C[C@H]2CN([C@@H](C(=O)O)C(C)(C)C)C[C@@H]2c2cccc(F)c2)CC1 | BaL | - | HeLa | β-galactosidase | - | EC90 | - | <0.00014 µM
O=c1[nH]cnc2c1ncn2C1CC[C@@H](CO)O1 | - | M184V | Primary T lymphocytes | p24 / ELISA | - | EC90 | - | 44.9 µM
CC(C)(C)NC(=O)[C@@H]1C[C@@H]2CCCC[C@@H]2CN1C[C@@H](O)[C@H](Cc1ccccc1)NC(=O)[C@H](CC(N)=O)NC(=O)c1ccc2ccccc2n1 | NL4-3 | PR-L10R M46I L63P 184V | MT-4 | p24 | - | EC95 | - | 0.1 µM
Cc1cn([C@H]2C[C@H](N=[N+]=[N-])[C@@H](CO)O2)c(=O)[nH]c1=O | LAV-Bru | - | U-937 | RT activity | 14 d | inhibition | 1 µM | 0%
CC(C)CN(C[C@@H](O)[C@H](Cc1ccccc1)NC(=O)[C@H](CC(N)=O)NC(=O)c1ccc2ccccc2n1)C(=O)NC(C)(C)C | NL4-3 | PR-L10R M46I L63P V82T I84V | MT-4 | p24 | - | EC95 | - | 1.5 µM
Cc1cn([C@H]2C[C@H](N=[N+]=[N-])[C@@H](CO)O2)c(=O)[nH]c1=O | Recombinant | RT-M41L A62V S68N G112S V118I M184V | HeLa | luciferase | - | EC50 | - | 0.00608 µM

For reference, 5 entries again:

compound,strain,mutations,cells,read by,setting,endpoint,dose,value
CC(C)CN(C[C@@H](O)[C@H](Cc1ccccc1)NC(=O)[C@H](CC(N)=O)NC(=O)c1ccc2ccccc2n1)C(=O)NC(C)(C)C,NL4-3,PR-L10R M46I L63P V82T I84V,MT-4,p24,-,EC95,-,1.5 µM
Cc1cc(C)c(-n2nnnc2SCC(=O)Nc2ccc(Cl)nc2Cl)c(C)c1,-,-,MT-4,p24,-,EC95,-,<10 µM
CC(=O)N1CCC(C(=O)N(CCCN2CCC(Cc3ccc(C(N)=O)cc3)CC2)c2ccc(C)c(Cl)c2)CC1,R5 subtype E_1 recombinant,-,U87 (CD4+ CCR5+) + U87,luciferase,-,EC50,-,0.0015 µM
Cc1cc(C)c(-n2nnnc2S(=O)CC(=O)Nc2ccccc2[N+](=O)[O-])c(C)c1,-,-,MT-4,p24,-,EC95,-,<10 µM
CC(C)(C)NC(=O)[C@@H]1C[C@@H]2CCCC[C@@H]2CN1C[C@@H](O)[C@H](Cc1ccccc1)NC(=O)[C@H](CC(N)=O)NC(=O)c1ccc2ccccc2n1,NL4-3,PR-L10R M46I L63P 184V,MT-4,p24,-,EC95,-,0.1 µM

Lines come from different laboratories, so protocols vary. ECn is the concentration giving n% inhibition of infection, replication or growth. Percent inhibition refers to the dose given; in toxicity tests it is the harm to the cells. An empty or dashed field is not shown.